Measured values reported in PMC9723642.

Columns and labels:
Assay in all cases: pull-down
[1] = target: HA-NCL expressed in yeast (Homo sapiens) (UniProt P19338); conditions: pull-down: RNA folded in 100 mM KCl, 90 min at room temperature, washes 200-800 mM KCl, protein in a lysate after overexpression, protein details: HA, label: 3' biotin-TEG
[2] = target: HA-NCL-R10F R656F,R660F,R666F,R670F,R673F,R679F,R681F,R687F,R691F,R694F (Homo sapiens) (UniProt P19338); conditions: pull-down: RNA folded in 100 mM KCl, 90 min at room temperature, washes 200-800 mM KCl, protein in a lysate after overexpression, protein details: HA, label: 3' biotin-TEG
[3] = target: HA-NCL-wt (H1299) (Homo sapiens) (UniProt P19338); conditions: pull-down: RNA folded in 100 mM KCl, 90 min at room temperature, washes 200-800 mM KCl, protein in a lysate after overexpression, protein details: HA, label: 3' biotin-TEG
[4] = target: HA-NCL-R10A R656A,R660A,R666A,R670A,R673A,R679A,R681A,R687A,R691A,R694A (Homo sapiens) (UniProt P19338); conditions: text: does not bind, legend: only residual binding; pull-down: RNA folded in 100 mM KCl, 90 min at room temperature, washes 200-800 mM KCl; protein in a lysate after overexpression; protein details: HA; label: 3' biotin-TEG
[5] = target: HA-NCLΔRGG expressed in yeast (Homo sapiens) (UniProt P19338); conditions: residual binding; pull-down: RNA folded in 100 mM KCl, 90 min at room temperature, washes 200-800 mM KCl; protein in a lysate after overexpression; protein details: HA; label: 3' biotin-TEG
[6] = target: T1, nsr1ΔRGG (Saccharomyces cerevisiae (Y32 rggΔ)) (UniProt P27476); conditions: residual binding, comparable with Nsr1 on GM; pull-down: RNA folded in 100 mM KCl, 90 min at room temperature, washes 200-800 mM KCl; protein in an extract; label: 3' biotin-TEG
T1 sequence (looked up, limits assumed): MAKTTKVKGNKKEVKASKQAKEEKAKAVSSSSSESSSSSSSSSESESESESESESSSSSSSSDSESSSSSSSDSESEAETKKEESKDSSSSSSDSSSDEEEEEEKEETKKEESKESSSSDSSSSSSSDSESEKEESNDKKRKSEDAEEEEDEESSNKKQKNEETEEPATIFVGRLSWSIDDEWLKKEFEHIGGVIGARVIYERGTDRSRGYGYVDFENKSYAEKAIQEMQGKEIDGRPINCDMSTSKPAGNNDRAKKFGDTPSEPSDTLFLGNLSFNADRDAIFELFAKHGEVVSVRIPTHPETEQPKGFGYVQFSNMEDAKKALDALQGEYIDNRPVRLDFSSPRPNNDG

Sequence | binding result ([1]; residual binding) | binding result ([2]; G4-dependent binding) | binding result ([3]; G4-dependent binding) | binding result [1] | binding result [4] | binding result ([2]; binds, less efficiently than wt) | binding result [3] | binding result [5] | binding result [6]
GAGGCAGUAGCAGUAGAA [GM] | binds more weakly | binds more weakly | binds more weakly | – | – | – | – | – | –
GGGGCAGGAGCAGGAGGA [GQ] | – | – | – | binds | no binding | binds more weakly | binds | binds more weakly | binds more weakly

Results from cells or extracts need not show a direct contact. For part of these data: A negative result means that nothing was seen under these conditions. For part of these data: For at least one entry, the source does not settle the construct or the ends of the probe. For part of these data: Weaker means in comparison with the reference protein, sequence or condition of that experiment. For part of these data: At least one verdict was read from the data and is not stated in words by the source. For part of these data: Protein sequences can lack the tags named with them.
